The results in this text go back to article PMC7954794, “Protein context shapes the specificity of SH3 domain-mediated interactions in vivo” (Nature Communications, 2021).

The amount applied is not stated for every result.

B1: YBL039C (protein, UniProt P28274 1-579, looked up)
CTP synthase 1: MKYVVVSGGVISGIGKGVLASSTGMLMKTLGLKVTSIKIDPYMNIDAGTMSPLEHGECFVLDDGGETDLDLGNYERYLGVTLTKDHNITTGKIYSHVIAKERKGDYLGKTVQIVPHLTNAIQDWIERVAKIPVDDTGMEPDVCIIELGGTVGDIESAPFVEALRQFQFKVGKENFALIHVSLVPVIHGEQKTKPTQAAIKGLRSLGLVPDMIACRCSETLDKPTIDKIAMFCHVGPEQVVNVHDVNSTYHVPLLLLEQKMIDYLHARLKLDEISLTEEEKQRGLELLSKWKATTGNFDESMETVKIALVGKYTNLKDSYLSVIKALEHSSMKCRRKLDIKWVEATDLEPEAQESNKTKFHEAWNMVSTADGILIPGGFGVRGTEGMVLAARWARENHIPFLGVCLGLQIATIEFTRSVLGRKDSHSAEFYPDIDEKNHVVVFMPEIDKETMGGSMRLGLRPTFFQNETEWSQIKKLYGDVSEVHERHRHRYEINPKMVDELENNGLIFVGKDDTGKRCEILELKNHPYYIATQYHPEYTSKVLDPSKPFLGLVAASAGILQDVIEGKYDLEAGENKFNF
B2: YNL229C (protein, UniProt P23202 2-354, looked up)
Transcriptional regulator URE2: MNNNGNQVSNLSNALRQVNIGNRNSNTTTDQSNINFEFSTGVNNNNNNNSSSNNNNVQNNNSGRNGSQNNDNENNIKNTLEQHRQQQQAFSDMSHVEYSRITKFFQEQPLEGYTLFSHRSAPNGFKVAIVLSELGFHYNTIFLDFNLGEHRAPEFVSVNPNARVPALIDHGMDNLSIWESGAILLHLVNKYYKETGNPLLWSDDLADQSQINAWLFFQTSGHAPMIGQALHFRYFHSQKIASAVERYTDEVRRVYGVVEMALAERREALVMELDTENAAAYSAGTTPMSQSRFFDYPVWLVGDKLTIADLAFVPWNNVVDRIGINIKIEFPEVYKWTKHMMRRPAVIKALRGE
B3: YNL307C (protein, UniProt P21965 2-375, looked up)
Protein kinase MCK1: STEEQNGVPLQRGSEFIADDVTSNKSNNTRRMLVKEYRKIGRGAFGTVVQAYLTQDKKNWLGPFAIKKVPAHTEYKSRELQILRIADHPNIVKLQYFFTHLSPQDNKVYQHLAMECLPETLQIEINRYVTNKLEMPLKHIRLYTYQIARGMLYLHGLGVCHRDIKPSNVLVDPETGVLKICDFGSAKKLEHNQPSISYICSRFYRAPELIIGCTQYTTQIDIWGLGCVMGEMLIGKAIFQGQEPLLQLREIAKLLGPPDKRFIFFSNPAYDGPLFSKPLFSGSSQQRFEKYFGHSGPDGIDLLMKILVYEPQQRLSPRRILAHQFFNELRNDDTFLPRGFTEPIKLPNLFDFNDFELQILGEFADKIKPTKVAE
B4: YGL099W (protein, UniProt P53145 1-640, looked up)
Large subunit GTPase 1: MPPKEAPKKWKAPKGPKPTHRKNKNKLELGRAIKYARQKENAIEYLPDGEMRFTTDKHEANWVKLRSVTQESALDEFLSTAALADKDFTADRHSNVKIIRMDSGNDSATSQGFSMTNEQRGNLNAKQRALAKDLIVPRRPEWNEGMSKFQLDRQEKEAFLEWRRKLAHLQESNEDLLLTPFERNIEVWKQLWRVVERSDLVVQIVDARNPLLFRSVDLERYVKESDDRKANLLLVNKADLLTKKQRIAWAKYFISKNISFTFYSALRANQLLEKQKEMGEDYREQDFEEADKEGFDADEKVMEKVKILSIDQLEELFLSKAPNEPLLPPLPGQPPLINIGLVGYPNVGKSSTINSLVGAKKVSVSSTPGKTKHFQTIKLSDSVMLCDCPGLVFPNFAYNKGELVCNGVLPIDQLRDYIGPAGLVAERIPKYYIEAIYGIHIQTKSRDEGGNGDIPTAQELLVAYARARGYMTQGYGSADEPRASRYILKDYVNGKLLYVNPPPHLEDDTPYTREECEEFNKDLYVFDRLPDTRKEQVQNAAKAKGIDIVDLARDLNQLTFSAHTGGDTQKEAKSVTHGGKQAALYNAAEDLDRDFFKMNNVEGRLSTPFHKVQNSSAGKRHNKKNKSKNAKSKVFSIENN
B5: YNL106C (protein, UniProt P50942 1-1183, looked up)
Polyphosphatidylinositol …: MKILLSKQQTRKIAIVSETHGLVFRPINSKNSRRSTCAVELVPKAELNGNGFRRLSNHEIYGFIGLIEIEGLMFIATITGKSKVAQPIPNKTVNKIYAVDFFCLNNSKWDFMDIDSSGYPIVTNDGDFAISSPPSISTHSSRSSLRSSSSRSLNAQEQAPKHPCHELRKLLSNGSFYYSTDFDLTCTLQKRGFTEHSLSFDDFDREFMWNSFLMDEIITYRDRLDVTAKELLDQRGFLTTVIRGFAETIFSYINRLKVGLTIISRQSWKRAGTRFNARGIDDDGHVANFVETEMIMYSSQYCYAFTQIRGSLPIFWEQDTSLISPKIQITRSVEATQPTFDEHFIRLFKKYGPVHIINLLSTKSSEIQLSRRYKEQLKNSEKMKIGRDVFLTSFDFHRETSQDGFAAASRIIPKIRNTILDAGYFSYDVKEGRLISEQDGVFRTNCLDCLDRTNLIQQTISLAVFKLFLEDFRLVKPSSFIDDNEFVQKVNALWADNGDQISQIYTGTNALKSSYSRKGKMSFSGALSDATKSVSRMYINNFVDKGKQQNIDTLLGKLPHQQVVELYDPICEYVNERLLESEEKFTTHSNINLFVGTFNVNGNSRRADLSKWLFPIGDKFKPDVVVLGLQEVIELTAGSILNADYTKSSFWETMVTDCLNQYEEKYLLLRVEQMSSLLILFFARSDRAYNIKEVGGSTKKTGFGGITGNKGAVAIRFDYGATSFCFVNTHLSAGASNIDERRNDYNNIYRNITFPRSKTIPHHDSLFWLGDLNYRITLTNDEVRRELRAQKDGYIDRLLQYDQLTQEINEGVVFQGFKEPTLQFRPTYKYDYGTDNYDTSEKARTPSWTDRIIYKGENLHPLAYSDAPLKISDHKPVYAAYRANVKFVDEKEKLNLVEKLYAEYKNTHPEALTTGPDELSHARMEKQKESIPLDATVQSAGIKLIDLDDTSSCVSPLLSGPSPQPSVVGPGGLSNVSPDKSKLNVLPPPPPTSRHNKEPSSKLLSPTKEISIVSVSPRKGESNLPALERHSTPKPLPPVPALSLSKPVSLQKSSSELQHAKETIDNGKIVPRPCPPIRRKSSTAPDEISTSTKNSGVSTTEDPEPAKASTKPEKPPVVKKPHYLSVAANKLNTSQEHSIKVSPSNSKSEEELPCKKKSKPKVPAKNPELEKLSVHPLKPCDPN
B6: YOR284W (protein, UniProt Q12134 1-243, looked up)
Protein HUA2: MQQTKFGKMYLDHDSVVEYSEDEIVEADRITLGYKKRLSMIENQMRHLLEDFSLDVQQIEPILADLQKYYDAFLQLLQKRNKSLQCKRSTHQPVPSPMNSQTSTNAKVNLSGKLMKFQLNSVQKFDEENILRILQNKIEFEHYFQIDKGKKQKVLLLAVYQCLNGPTRLHKVLNIEGIIHNNSIRTILGKQVSSSKWTVFLYDVKLVLLAHRQDVPNLETSKMIVRYGDLFPCALYFKDHTAY
B7: YNL094W (protein, UniProt P53933 1-587, looked up)
Phosphatidate phosphatase APP1: MNSQGYDESSSSTAATSGPTSGDPRMGKKQRFMNLIRTTKDVYIPNLTSSISQKTMDGIRSTTNSFEGYNDLPMELPHNTTITYFPTYTTTNLVDPDGLSAPRKDFETTVRCAVSYPGNPTSRRNRWLLSLCKQYLRTGTAEADVAPVVPPHLEEDSGDLNDSQSSIESSLSSKSENRYSHMGIQEEDVLNERIQGFLSKKVPNTPVVVDLLPKDKLRGDTASFFGTTDSYGNLLIKAETDFLPSKINITLDTPIEGHADPISETFPANYVSPYGIGLISDIDDTIKHTGVTGDRRSMFRNVFIHDVQSWVIDGVPLWYKTLHDVADVDFFYVSNSPIQTFTLLKQYICANFPPGPIFLKQYSGNFFSTIMTSSANRKIQPIANILKDFPKKKFILVGDSGEHDLEAYTTTALQFPNQILAIYIRCCSNSMSDVPSHDEEVMNEVNNIIELQQRPMQMTKSTVRTRRRPPPPPIPSTQKPSLTEEQTESIRMSRRNKDENNAKRVAPPPLPNRQLPNLDANTYYVPSSQNDYGMYGAFMDKKADEWKRRVMDSIQKLSNQDTTLMFFSDPALSLEDSIRRIREKYSN
B8: YJR083C (protein, UniProt P47129 1-309, looked up)
Assembly-complementing factor …: MSEDQRVISQPIELHKLSIVDKHSQGQQQQPHQKQHEVQPESKSPRVTTPLKPKRLAIPISSPQRSTTNQSPVSDHASPISTDQDLIYKLAAKHREINELSFKLEVAQKELKQLELQFKDTLPRNGQQKLGNQNPSEYLSTFTKRIQQTFVDVNNSPNMLKGKKSINDFFSKPNNNVNSNINNTLPNRKPNPPPNRSQRMQNIAPSRSSESTPTSGPPLLPPRNTMKNANTTATAGENTPFLQRILNKFNQMNMEEDEFDDLLEKRKSKKDHYYIKENLGYEYDEVRSEDEDDEEFEPMGDIPVHLFKR
B9: YNL255C (protein, UniProt P53849 1-153, looked up)
Zinc finger protein GIS2: MSQKACYVCGKIGHLAEDCDSERLCYNCNKPGHVQTDCTMPRTVEFKQCYNCGETGHVRSECTVQRCFNCNQTGHISRECPEPKKTSRFSKVSCYKCGGPNHMAKDCMKEDGISGLKCYTCGQAGHMSRDCQNDRLCYNCNETGHISKDCPKA
B10: YOR042W (protein, UniProt Q08412 1-411, looked up)
Ubiquitin-binding protein CUE5: MEEKEGIKDSSLLEKSNVPESINEDISKTTDVDLNSDGKKDNDTSAKDGTPKVEEKVNKSSGIDEDEVVTPAEDAKEEEEEHPPLPARRKSEEEPSKENPILQELKDAFPNLEEKYIKAVIIASQGVLSPAFNALLFLSDPESGKDIELPTQPVRKNPEAPARRRQTQLEQDELLARQLDEQFNSSHSRRRNRDRATRSMHEQRRRRHNPNEREQHHEDSEEEDSWSQFVEKDLPELTDRAGRSLQDTANKVSNWISDAYRRNFASGNEQNDNQHGHQDQQEWEPEIVDLSQGGKNSRPQQPERRRFNSFGVQVGDDSLESHGITLHNEDGFEDDEDVPPQLPTRTKSGESTGKVVAETTYIDTPDTETKKKWQPLPPEPLDTTPTKVNAVSRNKKNPDEDEFLINSDDEM
B11: YNL098C (protein, UniProt P01120 2-319, looked up)
Ras-like protein 2: PLNKSNIREYKLVVVGGGGVGKSALTIQLTQSHFVDEYDPTIEDSYRKQVVIDDEVSILDILDTAGQEEYSAMREQYMRNGEGFLLVYSITSKSSLDELMTYYQQILRVKDTDYVPIVVVGNKSDLENEKQVSYQDGLNMAKQMNAPFLETSAKQAINVEEAFYTLARLVRDEGGKYNKTLTENDNSKQTSQDTKGSGANSVPRNSGGHRKMSNAANGKNVNSSTTVVNARNASIESKTGLAGNQATNGKTQTDRTNIDNSTGQAGQANAQSANTVNNRVNNNSKAGQVSNAKQARKQQAAPGGNTSEASKSGSGGCC
B12: YBR130C (protein, UniProt P38272 1-425, looked up)
SWI5-dependent HO expression …: MSDQDNTQTSSSKLAPHHNIFMANLESSPTKDRNTSSQNASSSRVIESLHDQIDMLTKTNLQLTTQSQNLLSKLELAQSKESKLLENLNLLKNENENLNSIFERKNKKLKELEKDYSELSNRYNEQKEKMDQLSKLAKNSSAIEQSCSEKLQNMEVNYNSLLESQNLYRDHYSDEISKLNEKIGLLELELSNQNLNYGSDTSSNSDIELNLNKFNDSVKDLKSLETEKDSKLSKIITHSLDELNLQSWLNLYQTNENLISTFAEKMDLKDVLKRNDEKISNKGAVVQTLKKNVQTQVESNNADALSSNNAQDMLPIKMVKLRKTPNTNDSSSNGNSSNNKRRSFYTASPLLSSGSIPKSASPVLPGVKRTASVRKPSSSSSKTNVTHNNDPSTSPTISVPPGVTRTVSSTHKKKGNSMVVHGAQS

The data set concerns ABP1. Description: DHFR-PCA on solid medium, bait ABP1 (Fig. 1B). Format: cell-based, Saccharomyces cerevisiae. More on the design: key: 0: SH3-independent; 1: SH3-dependent PPIs; 2: SH3-inhibited PPIs. The settings on record: bait ABP1, label = prey. The text has this:
Supplement 41467_2021_21873_MOESM8_ESM.xlsx, sheet "Fig1B" | column: medsize; medrep; Ratio; Score
B1: the Score is 0.

On to B2, for which the Score is recorded as 0.

B3 gave a Score of 0.

B4 yielded a Score of 1.

Molecule B5 returned a Score of 0.

B6 returned a Score of 1.

In the case of B7, the Score was 1.

Take B8: the Score turned out to be 1.

B9 displayed a Score of 0.

B10 gave a Score of 0.

Take B11: the Score is recorded as 0.

As for B12, the Score worked out at 0.
